Measured values from several laboratories, pooled; numbers as filed in NIAID ChemDB.

Common to all: tests in culture; agent: Aspergillus fumigatus; measure: zone

Zones are inhibition diameters on agar.

COc1ccc(Cc2ccc(OC)c(-c3nnc4sc(-c5cccnc5)nn34)c2)cc1-c1nnc2sc(-c3cccnc3)nn12 ; strain or isolate: HIC 6094 ; dose: 100 µg/disc ; value: 20 mm
CN1CCN(c2nc(Nc3ccc(C#N)c(C(F)(F)F)c3)nc(Oc3ccnc4ccccc34)n2)CC1 ; strain or isolate: MTCC 343 ; dose: 100 µg/mL ; value: <10 mm
Cn1cc(CCC(=O)NCCCc2c[nH]c3ccc(Cl)cc23)c2cc(Cl)ccc21 ; strain or isolate: NCIM 902 ; dose: 25 µg/mL ; value: <10 mm
COc1ccc(Cc2ccc(OC)c(-c3nnc4sc(-c5ccc(Cl)cc5)nn34)c2)cc1-c1nnc2sc(-c3ccc(Cl)cc3)nn12 ; strain or isolate: HIC 6094 ; dose: 100 µg/disc ; value: 10 mm
Cc1ccc(O)c(O)c1O ; dose: 100 µg/mL ; value: 10 mm
Fc1ccc2c(c1)Sc1cccnc1N2CCCCCCN1c2ccc(F)cc2Sc2cccnc21 ; strain or isolate: MTCC 343 ; dose: 100 µg/mL ; value: 11 mm
Nc1nc(COC(=O)C2(c3ccc(Cl)cc3)CC2)cs1 ; strain or isolate: NCIM No. 902 ; dose: 25 µg/mL ; value: <10 mm
CC(=O)Nc1ccc(Cl)cc1Sc1ncccc1[N+](=O)[O-] ; strain or isolate: MTCC 343 ; dose: 100 µg/mL ; value: 12 mm
Nc1nc(COC(=O)c2ccco2)cs1 ; strain or isolate: NCIM No. 902 ; dose: 25 µg/mL ; value: <10 mm
Cc1[nH]c2ccc(OC(F)(F)F)cc2c1CNC(=O)CCc1c[nH]c2ccc(Cl)cc12 ; strain or isolate: NCIM 902 ; dose: 25 µg/mL ; value: <10 mm
Clc1ccc2c(c1)Sc1cccnc1N2CCCCCCN1c2ccc(Cl)cc2Sc2cccnc21 ; strain or isolate: MTCC 343 ; dose: 100 µg/mL ; value: 12 mm
COc1ccc(Cc2ccc(OC)c(-c3nnc4sc(-c5ccccc5)nn34)c2)cc1-c1nnc2sc(-c3ccccc3)nn12 ; strain or isolate: HIC 6094 ; dose: 100 µg/disc ; value: 12 mm
Fc1ccc2c(c1)Sc1cccnc1N2CCCCN1c2ccc(F)cc2Sc2cccnc21 ; strain or isolate: MTCC 343 ; dose: 100 µg/mL ; value: 10 mm
COc1ccc(Cc2ccc(OC)c(-c3nnc4sc(-c5ccc(C)cc5)nn34)c2)cc1-c1nnc2sc(-c3ccc(C)cc3)nn12 ; strain or isolate: HIC 6094 ; dose: 100 µg/disc ; value: 8 mm
Cc1[nH]c2ccc(OC(F)(F)F)cc2c1CNC(=O)CCc1cn(C)c2ccc(Cl)cc12 ; strain or isolate: NCIM 902 ; dose: 25 µg/mL ; value: <10 mm
Nc1nc(COC(=O)c2ccccc2[N+](=O)[O-])cs1 ; strain or isolate: NCIM No. 902 ; dose: 25 µg/mL ; value: <10 mm
Brc1ccc2c(c1)Sc1cccnc1N2CCCCN1c2ccc(Br)cc2Sc2cccnc21 ; strain or isolate: MTCC 343 ; dose: 100 µg/mL ; value: 12 mm
Nc1nc(COC(=O)c2c(F)cccc2Cl)cs1 ; strain or isolate: NCIM No. 902 ; dose: 25 µg/mL ; value: <10 mm
Brc1ccc2c(c1)Sc1cccnc1N2C/C=C/CN1c2ccc(Br)cc2Sc2cccnc21 ; strain or isolate: MTCC 343 ; dose: 100 µg/mL ; value: 12 mm

Lines come from different laboratories, so protocols vary.